Laboratory results reported in patent publication US20110308790A1, “IN SITU METHANOGENESIS MODELING AND RISK ANALYSIS” (CONOCOPHILLIPS COMPANY, priority 2010, published 2011).

Test system: microbial populations derived from the Cook Inlet subsurface waters
Assay: microbial removal of individual volatile fatty acids (VFAs)
Format: cell-based
Details: microbial populations from Cook Inlet wells, within a few months

SMILES | conversion/degradation of VFA to CH4
CC(=O)O [acetate] | stoichiometric conversion
CCC(=O)O [propionate] | not degraded in any of the samples
